Assay results taken from publication PMC4877379.

Target: T1, CodY (B. cereus INRA C3) (Bacillus cereus INRA C3) (UniProt Q819X8)
T1 sequence: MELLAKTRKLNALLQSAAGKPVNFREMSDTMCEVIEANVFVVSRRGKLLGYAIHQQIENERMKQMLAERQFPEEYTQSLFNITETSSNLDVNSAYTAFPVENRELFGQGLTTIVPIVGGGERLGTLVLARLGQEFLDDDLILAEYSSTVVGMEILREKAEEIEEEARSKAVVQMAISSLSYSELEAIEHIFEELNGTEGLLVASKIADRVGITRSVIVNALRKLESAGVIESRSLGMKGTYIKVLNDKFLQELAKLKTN
Assay: EMSA
Conditions: positive control; recombinant protein; protein details: N-terminal His6 (pET28b(+), NdeI/XhoI); probe letters rebuilt from the primers and the genome

Sequence “ATGTAATTCCTCCCTAATTATCGGTCATAATTGCTGCTACAGAATACATGATAATGCAATCGGACTTTGTGTTTTATATAGTGAATTATCAAATACTTTGTAGATGAAACAAAGATAAAATCCCCATTAAACTCCCTCTATGGAAATTATAAATTGTTCGATAAAAACTTTCAATATTTTCAGAAAACATTGTTGAATTGTGATATATCCGTATGCTAACTATGAAATTTTTACAAATATATTAAAAACATTACATAATATGACTAAATATTGAAAAAATATTGAATTTTTAATAAAATTTAATTTGTAATACATATTATTTATTAGGGGAGGAAATAAGGGATGAACAA (double strand) [PinhA1 INRA C3]” has a Kd of 250 nM.

Construct, isoform or probe ends are uncertain for at least one entry.
